Data taken from PMC3504009 (PLoS ONE, 2012).

Molecular target: YscUCC-His6, wild type, from GST-YscUC-His6 (Y. pseudotuberculosis, UniProt P69987)

B1: GST-YscUCN, the GST-carrying N-terminal fragment of GST-YscUC-His6 (domain or fragment)
chain: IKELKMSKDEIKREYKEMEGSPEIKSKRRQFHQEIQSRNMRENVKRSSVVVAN
B1: binds.
